Measured values from several laboratories, pooled; numbers as filed in NIAID ChemDB.

All rows: toxicity to cultured cells; cells: KB; read-out: CC50

CCn is the concentration with n% toxicity to the cells. Rows are shuffled and stem from different studies.

smiles | value
COc1cc(/C=C/C(=O)Oc2c(-c3ccc(Cl)c(Cl)c3)oc3ccccc3c2=O)ccc1OC(C)=O | >100 µM
OCCOCn1c(Cl)nc(Cl)c1Cl | 25 µM
OC[C@H]1O[C@@H](n2c(NC3CC3)nc3cc4cc(Cl)c(Cl)cc4nc32)[C@H](O)[C@@H]1O | 100 µM
CCC[C@@H](OC(C)=O)C1=C(Br)[C@@](CI)(OC)OC1=O | >20 µg/mL
OC[C@H]1O[C@@H](n2c(Br)nc(Cl)c2Cl)[C@H](O)[C@H]1O | >100 µM
OC[C@H]1O[C@@H](n2c(Cl)nc3cc(Cl)c(Cl)cc32)[C@H](O)[C@@H]1O | 210 µM
OCC(CO)OCn1c(Br)nc(Cl)c1Cl | >100 µM
COC(=O)/C(=C1\OC(=O)C(c2ccccc2)=C1O)c1ccccc1 | >20 µg/mL
COc1cc(/C=C/C(=O)Oc2c(-c3ccc(Cl)c(Cl)c3)oc3ccccc3c2=O)ccc1O | 2.1 µM
OC[C@H]1O[C@@H](n2c(Cl)nc3cc(Cl)c(Cl)cc32)[C@H](O)[C@@H]1O | >100 µM
C[C@]1(/C=C/Cl)C[C@](Cl)(CBr)[C@@H](Br)C[C@H]1Cl | 13.3 µg/mL
OC[C@H]1O[C@@H](n2cnc(Cl)c2Cl)[C@H](O)[C@@H]1O | >100 µM
O=c1c(O)c(-c2ccc(Cl)c(Cl)c2)oc2ccccc12 | 4.2 µM
OCC1OC(n2c(SCc3ccccc3)nc3nc4cc(Cl)c(Cl)cc4nc32)C(O)C1O | 20 µM
COc1cc([C@@H]2c3cc4c(cc3[C@@H](O[C@@H]3O[C@@H]5CO[C@@H](C)O[C@H]5[C@H](O)[C@H]3O)[C@H]3COC(=O)[C@H]23)OCO4)cc(OC)c1O | 0.4 µM
OC[C@H]1O[C@@H](n2c(Cl)nc3cc4cc(Cl)c(Cl)cc4cc32)[C@H](O)[C@@H]1O | 19 µM
OC[C@H]1O[C@@H](n2c(Br)nc3cc(Cl)c(Cl)cc32)[C@H](O)[C@@H]1O | >100 µM
C=C(C)[C@@H]1CC[C@]2(C)CC[C@]3(C)[C@H](CC[C@@H]4[C@@]5(C)CC[C@H](OC(C)=O)C(C)(C)[C@@H]5CC[C@]43C)[C@@H]12 | >20 µg/mL
OC[C@H]1O[C@@H](n2cnc3cc4cc(Cl)c(Cl)cc4cc32)[C@H](O)[C@@H]1O | >100 µM

For reference, 2 entries again:

smiles	value
OC[C@H]1O[C@@H](n2c(Cl)nc3cc4cc(Cl)c(Cl)cc4cc32)[C@H](O)[C@@H]1O	19 µM
C=C(C)[C@@H]1CC[C@]2(C)CC[C@]3(C)[C@H](CC[C@@H]4[C@@]5(C)CC[C@H](OC(C)=O)C(C)(C)[C@@H]5CC[C@]43C)[C@@H]12	>20 µg/mL